Primary screen of a compound library

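Phenotypic screen: M. tuberculosis growth, glucose 7H9 medium, 3 days; the read-out is not stated. Compounds at 500 µM. The record gives no direction; compounds that gave an IC50 in retests scored well above the rest, so higher reads as more growth inhibition. About 18,000 compounds were tested under these conditions; 7.9% (about 1,400) showed 50% or more at least once.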

Results are given as percent effect.
The record does not define 0% and 100%; most values in the screen are far below 50% and negative numbers occur (in some assays of this library far below -100).
The entries come from a sample that favours strong results.

| SMILES | Percent Effect |
|---|---|
| `Cc1cc(N2CCC2c2ccccc2)n2ncnc2n1` (centres unmarked) | 83.03% |
| `N#Cc1ccc(OCC(O)CN2CCC(O)CC2)cc1` (centres unmarked) | 3.434% |
| `N#Cc1ccc(-n2ccc(N)n2)c(F)c1` | 14.45% |
| `Cc1n[nH]cc1CNC(CS(C)(=O)=O)c1ccccc1` (centres unmarked) | 15.1% |
| `CCCN1CC(C(=O)NCc2cccnc2)CC1=O` (centres unmarked) | -13.13% |
| `Brc1nnnn1-c1ccc2c(c1)OCCO2` | 6.426% |
| `CC(C)c1cc(C(=O)N2CC(c3ccccn3)C2)no1` | 74.92% |
| `CCOC(=O)CNC(=O)c1ccc2c(c1)OCCO2` | 48.91% |
| `C[C@@H](O)CNCc1cnn(-c2ccc(F)cc2)c1` | 31.78% |
| `Cc1cc(NC(=O)NCc2cnn(C)c2C)ccn1` | 4.114% |
| `CCSCCOc1ccc(CO)nc1` | 55.65% |
| `CN(C)C1CCCN(C(=O)NCCc2ccco2)C1` (centres unmarked) | 14.6% |
| `NC(=O)CC1CCN(Cc2cccc(F)c2)CC1` | -4.002% |
| `CC(C)c1cccc(NC(=O)CN)c1` | 35.43% |
| `CC1(N)Cc2ccccc2C1` | 48.19% |
| `COc1ccc(C(C)N)c(C)c1OC` (centres unmarked) | 2.429% |
| `Cc1ccc2oc(N3CCNCC3)nc2c1` | 63.68% |
| `NC(=O)CN1CCC(C(=O)Nc2ccc(Br)cn2)CC1` | 18.67% |
| `CNS(=O)(=O)c1ccc(C(=O)NCc2ccccc2)o1` | 58.17% |
| `Cc1cnc(C(=O)N(C)Cc2cc(C)on2)cn1` | -2.81% |
| `O=S1(=O)NCCN1c1ccccc1` | 10.72% |
| `CN(C1CCCC1)S(=O)(=O)NCCNc1ccccn1` | 59.26% |
| `COCC(NC(=O)c1ccsc1)C(N)=O` (centres unmarked) | 6.257% |
| `CCOc1ccc2cc(C(=O)N3CCSCC3)[nH]c2c1` | 3.581% |
| `CN(C)CC1CCN(CC(=O)N(C)CC(F)(F)F)CC1` | 7.545% |
| `CCN(C)CCNS(=O)(=O)c1ccc(C(C)=O)cc1` | 41.85% |
| `NC(=O)c1cc(S(=O)(=O)NCCc2ccccc2)cs1` | 63.46% |
| `COC(=O)c1ccc(COc2ccccc2CO)o1` | 59.76% |
| `Cc1ccc(Br)c(C(=O)NC2CCS(=O)(=O)CC2)c1` | -0.3053% |
| `CS(=O)(=O)N1CCC(COCc2ccccc2)C1` (centres unmarked) | 67.25% |
| `NC(=O)CCS(=O)(=O)CCN1CCOCC1` | 24.89% |
| `CC(=O)NCC1CCCN(c2ccc(C#N)cn2)C1` (centres unmarked) | 27.74% |
| `CNCC(=O)NCCCc1nc2c(C)c(C)ccc2[nH]1` | 16.81% |
| `c1nnc(SC2CCOCC2)s1` | 22.13% |
| `CCOC(=O)c1cc(CC)n(CCC#N)n1` | 2.843% |
| `NC(=O)C1CCN(c2ccnc3ccc(Cl)cc23)C1` (centres unmarked) | -4.565% |
| `COc1ccc2c(c1)CCCN2C(=O)CSC` | 45.28% |
| `CC(COCC(F)(F)F)NC(=O)c1cccnc1O` (centres unmarked) | 18.66% |
| `CN(C)c1ncc(CN)n1C` | 4.421% |
| `CCc1nc(CN(C)CCC(C)O)no1` (centres unmarked) | 5.897% |
| `CN(CCC(O)c1ccccc1)C(=O)c1cc(Cl)c[nH]1` (centres unmarked) | 89.89% |
| `COc1nc(C)cc(C)c1CN` | 21.66% |
| `OCc1cc2ccccc2nc1N1CCSCC1` | 76.13% |
| `CCN1C(=O)CN(C(=O)CC(C)C)CC12CCOCC2` | -1.411% |
| `CCc1nc(CCNC(=O)[C@@H](N)C(C)(C)C)no1` | 12.63% |
| `CC(N)Cc1nc(-c2ccccc2)no1` (centres unmarked) | 58.01% |
| `CCN(C)S(=O)(=O)Nc1cc(Cl)c(OC)c(Cl)c1` | 9.612% |
| `O=C(CCC(=O)c1ccccc1)NCc1cccnc1` | 3.137% |
| `COc1ccc(CCN2CCCNCC2)cc1` | 71.94% |
| `Cn1nccc1C(=O)N1CCC(Oc2ccccc2)C1` (centres unmarked) | 51.6% |
| `NC(=O)c1cc(N)nc2ccccc12` | -11.86% |
| `CCN(CC)CCOC1CCNC1` (centres unmarked) | -11.82% |
| `Cc1cc(NC(=O)NCC2CCS(=O)(=O)C2)no1` (centres unmarked) | -11.5% |
| `CCn1c(=O)n(CCC(=O)NC(N)=O)c2ccccc21` | 0.04916% |
| `Nc1cc(-c2ccc3c(c2)OCCO3)n[nH]1` | -15.24% |
| `O=C(NCCc1cn[nH]c1)[C@H](O)C1CCCCC1` | 3.676% |
| `Cc1cc(=O)[nH]c2ccc(S(N)(=O)=O)cc12` | 2.764% |
| `NCc1c(C(N)=O)oc2ccccc12` | 37.71% |
| `N#Cc1cc(CN2CCCC(OCCO)C2)ccc1F` (centres unmarked) | 5.215% |
| `O=C(CC1COCCN1)NCc1ccc2c(c1)OCO2` (centres unmarked) | 22.48% |

5 of the entries, repeated:

SMILES,Percent Effect
COc1nc(C)cc(C)c1CN,21.66%
CCOC(=O)CNC(=O)c1ccc2c(c1)OCCO2,48.91%
Cc1cc(NC(=O)NCc2cnn(C)c2C)ccn1,4.114%
CCn1c(=O)n(CCC(=O)NC(N)=O)c2ccccc21,0.04916%
O=S1(=O)NCCN1c1ccccc1,10.72%

From ChEMBL document CHEMBL3988442, “University of Dundee, Small-Polar-MMV Screening Library” (2021).